Compound potency records, mixed from different reports. Data source: NIAID ChemDB in PubChem.

Shared fields: whole-cell or culture tests; agent: Mycobacterium tuberculosis

MIC50, MIC90 and the like: level of inhibition, or share of isolates inhibited. MIC bound comes from a single tested concentration. Lines come from different laboratories, so protocols vary. Percent inhibition refers to the dose given; in toxicity tests it is the harm to the cells. An empty or dashed field is not shown. ECn: concentration that inhibits the pathogen or its effect by n%.

compound,changes,cells,dose,method,measure,strain or isolate,value
COc1cc(/C=N/NC(=O)c2ccccc2-c2nc3ccccc3[nH]2)ccc1O,,,,,EC50,H37Rv,<0.031 µg/mL
CC(=O)/C(N=Nc1ccc(C(=O)N/N=C/c2ccc(F)cc2)cc1)=C(\C)O,,,,,MIC,H37Rv,>12.5 µg/mL
Cc1cc(C)n2[nH]c(=O)cc2n1,,,12.5 µg/mL,BACTEC,inhibition,H37Rv,6%
CC1COc2c(N3CCN(C)CC3)c(F)cc3c(=O)c(C(=O)O)cn1c23,,,,,MIC,H37RV (DRUG-SUS),1 µg/mL
CCn1cc(C(=O)N/N=C/c2ccncc2)c(=O)c2ccccc21,,,,resazurin,MIC,H37Rv (ATCC 27294),>100 µg/mL
CO[C@H]1/C=C/O[C@@]2(C)Oc3c(C)c(O)c4c(O)c(c5c(c4c3C2=O)NC2(CCN(CC(C)C)CC2)N=5)=NC(=O)/C(C)=C\C=C\[C@H](C)[C@H](O)[C@@H](C)[C@@H](O)[C@@H](C)[C@H](OC(C)=O)[C@@H]1C,,,,,MIC,2356-5 (RIF-R),1 µg/mL
O=C(/C=C/c1ccncc1)c1ccco1,,,,,MIC,H37Rv,>12.5 µg/mL
CC(=O)/C(N=Nc1ccc(C(=O)N/N=C/c2ccc([N+](=O)[O-])cc2)cc1)=C(\C)O,,,,,MIC,H37Rv,>12.5 µg/mL
CCCCCc1cc(OC)c(C)c(OC)c1,,,,,MIC,H37Rv,≤2.5 µg/mL
CC1=NC(C)CNC(C)(C)CC(C)=NC(C)CNC(C)(C)C1,,,6.25 µg/mL,resazurin,inhibition,H37Rv,-3%
O=C(NN=Cc1ccc(Cl)cc1)c1ccc(-n2cc(-c3ccccc3)nn2)cc1O,,,,resazurin,MIC,H37Rv,6.25 µg/mL
CC1COc2c(N3CCN(C)CC3)c(F)cc3c(=O)c(C(=O)O)cn1c23,,,,,MIC,H37Rv,0.78 µg/mL
CC(=O)ONc1nn2cc(-c3ccccc3)nc2s1,,,12.5 µg/mL,BACTEC,inhibition,H37Rv,20%
CCCCCC/C=C\CCCCCCCc1cc(O)c(C)c(O)c1,,,,,MIC,H37Rv,19.3 µg/mL
O=c1nc(Oc2ccccc2)nc2c3ccccc3ccn12,,,,resazurin,MIC bound,H37Rv,>6.25 µg/mL
CC(=O)/C(N=Nc1ccc(C(=O)N/N=C/c2ccc([N+](=O)[O-])o2)cc1)=C(\C)O,,,,,MIC,H37Rv,3.13 µg/mL
C=Cc1ccccc1C=NNC(=O)c1ccc(-n2cc(-c3ccccc3)nn2)cc1O,,,,resazurin,MIC,H37Rv,25 µg/mL
CC(C)C(=O)c1cn(-c2cccc3ccccc23)nn1,,,,,MIC,H37Rv,>12.5 µg/mL
CNC(=O)NC1C(CO)OC2OC(C)(C)OC21,,,,BACTEC,MIC bound,H37Rv,>12.5 µg/mL
CO[C@H]1/C=C/O[C@@]2(C)Oc3c(C)c(O)c4c(O)c(c5c(c4c3C2=O)NC2(CCN(CC(C)C)CC2)N=5)=NC(=O)/C(C)=C\C=C\[C@H](C)[C@H](O)[C@@H](C)[C@@H](O)[C@@H](C)[C@H](OC(C)=O)[C@@H]1C,,,,,MIC,26 (rifampicin-resistant),>2 µg/mL
NC(=S)c1cnc(C(=O)c2ccc(Cl)cc2)cn1,,,,resazurin,MIC,H37Rv,>12.5 µg/mL
CN(C)CC=C(c1ccc(Br)cc1)c1ccc(-c2ccc(Br)cc2)cc1,,,,,MIC,ALI 544,17 µg/mL
CCn1cc(C(=O)O)c(=O)c2cc(F)c(N3CCN(Cn4c(O)c(N=NC(=O)c5ccncc5)c5cc(Cl)ccc54)CC3)cc21,,,,BACTEC,EC50,H37Rv,<12.5 µg/mL
O=C(NN1C(=O)C(Cl)C1c1ccccc1)c1ccccc1-c1nc2ccccc2[nH]1,,,0.031 µg/mL,,inhibition,H37Rv,96%
CCn1cc(C(=O)O)c(=O)c2cc(F)c(N3CCN(CN4C(=O)C(=O)c5cc(Br)ccc54)CC3)cc21,,,,BACTEC,EC50,H37Rv,<12.5 µg/mL
COc1ccc(-c2cc(=O)c3cc(C(=O)O)ccc3o2)cc1,,,,,MIC,H37Rv,>12.5 µg/mL
OO,,,0.0005 µM,,inhibition,H37Rv,0%
O=C(O)c1cnc(C(=O)c2ccccc2O)cn1,,,,resazurin,EC50,H37Rv,>6.25 µg/mL
Cc1c(F)c(N2CCNC(C)C2)cc2c1c(=O)c(C(=O)O)cn2C1CC1,,,,,Mean MIC,206 isolates (susceptible),0.782 µg/mL
CC1CCCN(C(=S)S)C1.CC1CCCNC1,,,,,MIC,PAS-R,1.6 µg/mL
CCOC(=O)c1cn(C)cc1-c1ccc(OC)cc1,,,,,MIC,CIP103471,16 µg/mL
Nc1ccc(C(=O)N/N=C/c2ccc([N+](=O)[O-])o2)cc1,,,,,EC50,H37Rv,<12.5 µg/mL
O=C(O)C1C2OC3C(OOC31)C2Br,,,,BACTEC,MIC bound,H37Rv,>12.5 µg/mL
CC(Nc1ccc2ccccc2c1)C(=O)NN,,,,,EC50,H37Rv,0.5 µg/mL
COc1ccc2c(=O)cc(-c3cccc([N+](=O)[O-])c3)oc2c1,,,,,MIC,H37Rv,>12.5 µg/mL
CCn1cc(C(=O)O)c(=O)c2cc(F)c(N3CCN(Cn4c(O)c(N=NC(=O)c5ccncc5)c5ccccc54)CC3)cc21,,,,BACTEC,EC50,H37Rv,<12.5 µg/mL
O=C(c1ccc(Br)cc1)c1cn(-c2ccc(Cl)cc2)nn1,,,12.5 µg/mL,,inhibition,H37Rv,0%
O=[N+]([O-])[O][Ga]([O][N+](=O)[O-])[O][N+](=O)[O-],,,,,EC50,MDR isolates,<500 µM
Nc1ccc(C(=O)O)c(O)c1,,,,resazurin,MIC,H37Rv,5 µg/mL
COc1ccc(C2C(Cl)C(=O)N2NC(=O)c2ccccc2-c2nc3ccccc3[nH]2)cc1,,,,,EC50,H37Rv,<0.031 µg/mL
C=C1C(OC(=O)C(C)C)C(O)C(=O)C(C)(C)/C=C\C(C)C(=O)C2(O)CC(C)C(OC(=O)CC)C2C1OC(=O)c1ccccc1,,,,BACTEC,MIC,H37Rv,≥12.5 µg/mL
O=C(N/N=C/c1ccc(Cl)cc1)c1ccccc1-c1nc2ccccc2[nH]1,,,,,EC50,H37Rv,>0.031 µg/mL
NC(=S)c1cnc(C(=O)c2ccccc2O)cn1,,,,resazurin,EC50,H37Rv,<6.25 µg/mL
COc1ccc(CCNC(=O)c2ccc(CSc3ccc(Cl)cc3)o2)cc1OC,,,,BACTEC,MIC bound,H37Rv,>12.5 µg/mL
CCOC(=O)c1cn(Cc2ccc(Cl)cc2)cc1-c1ccncc1,,,,,MIC,CIP103471,0.5 µg/mL
CCn1cc(C(=O)N/N=C/c2ccncc2)c(=O)c2cc(Cl)ccc21,,,,resazurin,MIC,H37Rv (ATCC 27294),>100 µg/mL
CN(C)C/C=C(/c1ccccc1)c1ccc(-c2ccc(Br)cc2)cc1,,,,,MIC,H37Ra,10 µg/mL
NNC(=O)CNc1ccc2ccccc2c1,,,1 µg/mL,,inhibition,Drug-resistant,100%
O=C(O)c1cnc(C(=O)c2ccccc2)cn1,,,6.25 µg/mL,resazurin,inhibition,H37Rv,15%
Cc1nccc2c(C)c3c(cc12)c1ccccc1n3CC1CO1,,,,resazurin,MIC bound,H37Rv,<6.25 µg/mL
Cc1coc(C)c1C(=O)c1cn(-c2ccccc2)nn1,,,,,MIC,H37Rv,>12.5 µg/mL
COc1ccc(-n2sc3ncc(-c4ccccc4)cc3c2=O)cc1,,VERO,,resazurin,MIC,H37Rv,6.25 µg/mL
NC1[C@H]2CN(c3nc4c(cc3F)c(=O)c(C(=O)O)cn4-c3ccc(F)cc3F)C[C@@H]12,,,,,MIC50,44 isolates (resistant),32 µg/mL
CCn1cc(C(=O)N/N=C/c2ccco2)c(=O)c2cc(Cl)ccc21,,,,resazurin,MIC,H37Rv (ATCC 27294),>100 µg/mL
CN1CCN(c2ccncc2S(=O)(=O)N2CCN(C)CC2)CC1,,,6.25 µg/mL,resazurin,inhibition,H37Rv,8%
CCOC(=O)c1cn(-c2ccccc2)nn1,,,12.5 µg/mL,,inhibition,H37Rv,0%
CCn1cc(C(=O)N/N=C/c2ccc([N+](=O)[O-])o2)c(=O)c2ccccc21,,,,resazurin,MIC,H37Rv (ATCC 27294),6.25 µg/mL
N#Cc1cnc(C(=O)c2ccc(O)cc2)cn1,,,,resazurin,EC50,H37Rv,>6.25 µg/mL
NNC(=O)c1ccncc1,,,,,MIC50,188 strains,0.06 µg/mL
CCn1cc(C(=O)N/N=C/c2ccc([N+](=O)[O-])o2)c(=O)c2cc(Cl)ccc21,,,,resazurin,MIC,H37Rv (ATCC 27294),>100 µg/mL
CC1(C)COC(c2cccc(C3=NC(C)(C)CO3)n2)=N1,,,,BACTEC,MIC bound,H37Rv,>12.5 µg/mL
CCCCCc1cc(O)c(C)c(OC)c1,,,,,MIC,H37Rv,≤2.58 µg/mL
NNC(=O)c1ccncc1,,,,fluorescence / absorbance,MIC,H37Rv,0.64 µM
COc1cccc(C(N2C(=O)C(=O)c3ccccc32)n2c(O)c(N=NC(=O)c3ccc(-n4cc(-c5ccccc5)nn4)cc3O)c3cc(Cl)ccc32)c1,,,,resazurin,MIC,H37Rv,>25 µg/mL
O=C(N/N=C/c1ccccc1Cl)c1ccccc1-c1nc2ccccc2[nH]1,,,,,EC50,H37Rv,>0.031 µg/mL
OCc1cn(Cc2ccccc2Cl)cc1-c1ccccc1,,,,,MIC,CIP103471,8 µg/mL
O=C(O)CN1C(=O)CN=C(c2ccccn2)c2cc(Cl)ccc21,,,,BACTEC,MIC bound,H37Rv,>12.5 µg/mL
CN(C)C/C=C(/c1ccc(Br)cc1)c1ccc(-c2ccc(Br)cc2)cc1,,,,,MIC,ALI 552,17 µg/mL
NNC(=O)c1ccc(-n2cc(-c3ccccc3)nn2)cc1O,,,,resazurin,MIC,H37Rv,12.5 µg/mL
O=C(N/N=C/c1ccco1)c1ccccc1-c1nc2ccccc2[nH]1,,,0.031 µg/mL,,inhibition,H37Rv,43%
O=c1cc(-c2ccccc2I)oc2ccccc12,,,,,MIC,H37Rv,>12.5 µg/mL
Cc1cc(Cl)cc2c1NC(=O)C2(O)C/C(=N/NC(=O)CC#N)c1cccc([N+](=O)[O-])c1,,,,resazurin,MIC bound,H37Rv,>6.25 µg/mL
COc1ccc(-c2oc3cc(OC)cc(OC)c3c(=O)c2Br)cc1,,,,,MIC,H37Rv,>12.5 µg/mL
Cc1ccc(NC(=S)Nc2c(C)n(C)n(-c3ccccc3)c2=O)cc1,,,6.25 µg/mL,resazurin,inhibition,H37Rv,14%
O=C(N/N=C/c1cccc([N+](=O)[O-])c1)c1ccccc1-c1nc2ccccc2[nH]1,,,,,EC50,H37Rv,<0.031 µg/mL
CCn1cc(C(=O)O)c(=O)c2cc(F)c(N3CCN(CN4C(=O)C(=O)c5cc(Cl)ccc54)CC3)cc21,,,12.5 µg/mL,BACTEC,inhibition,H37Rv,95%
O=C1CN(/N=C/c2ccc(-c3cccc(C(F)(F)F)c3)o2)C(=O)N1,,,12.5 µg/mL,BACTEC,inhibition,H37Rv,28%
CO[C@H]1/C=C/O[C@@]2(C)Oc3c(C)c(O)c4c(O)c(c(/C=N/N5CCN(C)CC5)c(O)c4c3C2=O)NC(=O)/C(C)=C\C=C\[C@H](C)[C@H](O)[C@@H](C)[C@@H](O)[C@@H](C)[C@H](OC(C)=O)[C@@H]1C,513Pro,,,,MIC99,,>640 µg/mL
CN(C)C/C=C(\c1ccc(N)cc1)c1ccc(-c2ccc(Br)cc2)cc1,,,,,MIC,ALI 3236,19.5 µg/mL
Cc1ccc(S(=O)(=O)n2cc(CO)c(-c3ccncc3)c2)cc1,,,,,MIC,CIP103471,4 µg/mL
C=C(C)C(=O)O[C@H]1C/C(CO)=C\[C@H](O)C/C(C)=C\[C@@H]2OC(=O)C(=C)[C@H]21,,,12.5 µg/mL,BACTEC,inhibition,H37Rv,-3%
CN(C)c1ccc(C=NNC(=O)c2ccc(-n3cc(-c4ccccc4)nn3)cc2O)cc1,,,,resazurin,MIC,H37Rv,1.56 µg/mL
CCNCc1cc(Nc2nc(NC3CCC(N(C)C)CC3)c3ccccc3n2)ccc1OC.Cl.Cl.Cl,,,6.25 µg/mL,resazurin,inhibition,H37Rv,18%
Cc1ccc(-c2n[nH]c(=O)n2-n2c(C)ccc2C)cc1,,,,,MIC,1274,2.58 µg/mL
CC(C)[C@H]1C(=O)OC[C@@H](NC(=O)c2cnc3ccccc3n2)C(=O)N[C@@H](C)C(=O)N(C)[C@@H]2CSSC[C@H](C(=O)N1C)N(C)C(=O)[C@H](C)NC(=O)[C@H](NC(=O)c1cnc3ccccc3n1)COC(=O)[C@H](C(C)C)N(C)C2=O,,,,,MIC,PZA-R,0.4 µg/mL
CCCC/C=C\CCCCCCCCCc1cc(O)cc(OC)c1,,,,,MIC,H37Rv,33.8 µg/mL

6 of the rows above, restated:

CC(Nc1ccc2ccccc2c1)C(=O)NN ; measure: EC50 ; strain or isolate: H37Rv ; value: 0.5 µg/mL
CC(=O)ONc1nn2cc(-c3ccccc3)nc2s1 ; dose: 12.5 µg/mL ; method: BACTEC ; measure: inhibition ; strain or isolate: H37Rv ; value: 20%
CN(C)c1ccc(C=NNC(=O)c2ccc(-n3cc(-c4ccccc4)nn3)cc2O)cc1 ; method: resazurin ; measure: MIC ; strain or isolate: H37Rv ; value: 1.56 µg/mL
O=C(O)c1cnc(C(=O)c2ccccc2O)cn1 ; method: resazurin ; measure: EC50 ; strain or isolate: H37Rv ; value: >6.25 µg/mL
O=C(N/N=C/c1ccccc1Cl)c1ccccc1-c1nc2ccccc2[nH]1 ; measure: EC50 ; strain or isolate: H37Rv ; value: >0.031 µg/mL
Cc1c(F)c(N2CCNC(C)C2)cc2c1c(=O)c(C(=O)O)cn2C1CC1 ; measure: Mean MIC ; strain or isolate: 206 isolates (susceptible) ; value: 0.782 µg/mL